For at least one entry, the source does not settle the construct or the ends of the probe. At least one result comes from cells or an extract, where the contact may be indirect.
Target: hsp90-a (UniProt P82995)
Assay: pull-down
Settings: PNA strand, Cys-Bpa at N-term, Lys-amide at C-term, disulfide to TP10; protein in cells

Sequence	binding result
AAGCGCGGCTGCTCTAGCAGAA [Ank mRNA 5'-UTR region with annealed Ank 3 PNA]	binds
TACGAAACCTCTAAATCAAGG [Ank mRNA 3' region with annealed Ank 1 PNA]	binds
